This is an account of results in patent US20200024330A1 (published 2020).

What all share (test): cell-based or functional assay
Assay [1] deals with HIV-1 94UG103 envelope protein (Env) on pseudovirus (HIV-1).
Assay [2] deals with HIV-1 93UG077 envelope protein (Env) on pseudovirus (HIV-1).
Assay [3] deals with HIV-1 92RW020 envelope protein (Env) on pseudovirus (HIV-1).
The target in assay [4] is HIV-1 92TH021 envelope protein (Env) on pseudovirus (HIV-1).
Assay [5] deals with HIV-1 CMU02 envelope protein (Env) on pseudovirus (HIV-1).
Assay [6] deals with HIV-1 APV-13 envelope protein (Env) on pseudovirus (HIV-1).
Assay [7] concerns the target HIV-1 IAVI-C18 envelope protein (Env) on pseudovirus (HIV-1).
Assay [8] deals with HIV-1 IAVI-C3 envelope protein (Env) on pseudovirus (HIV-1).
Assay [9] has as its target HIV-1 92BR020 envelope protein (Env) on pseudovirus (HIV-1).
For assay [10], the target named is HIV-1 NL43 envelope protein (Env) on pseudovirus (HIV-1).
The target of assay [11] is HIV-1 93IN905 envelope protein (Env) on pseudovirus (HIV-1).
Assay [12] has as its target HIV-1 92UG005 envelope protein (Env) on pseudovirus (HIV-1).
In assay [13] the target is HIV-1 APV-17 envelope protein (Env) on pseudovirus (HIV-1).
Assay [14] addresses aMLV envelope protein on pseudovirus.
Assay [15] addresses HIV-1 92UG024 envelope protein (Env) on pseudovirus (HIV-1).
In assay [16] the target is HIV-1 IAVI-C22 envelope protein (Env) on pseudovirus (HIV-1).
Assay [17] deals with HIV-1 APV-6 envelope protein (Env) on pseudovirus (HIV-1).
In assay [18] the target is HIV-1 Env of isolate MG RM-C-005 (HIV-1).
For assay [19], the target named is HIV-1 Env of isolate MG RM-A-004 (pseudovirus) (HIV-1).
For assay [20], the target named is HIV-1 Env of isolate MG RM-A-002 (pseudovirus) (HIV-1).
Assay [21] addresses HIV-1 Env of isolate MG RM-A-003 (pseudovirus) (HIV-1).

B1: 1460_G14 (PGG14) (antibody, V domains shown)
VH: QVLLVQSGTEVKKPGSSVKVSCQASGGAFSSYAFSWVRQAPGQGLEWMGMITPVFGETKYAPRFQGRLTLTAEESLSTTYMELRSLTSDDTAFYYCTRDRRVVPMATDNWLDPWGQGTLVTVSS
VL: DIQLTQSPSSLSASVGDRVTVTCRASQTIHTYLNWYQQIPGKAPKLLIYGASTLQSGVPSRFSGSGSGTDFTLTINSLQPEDFATYYCQQSYSTPRTFGQGTRLDIKR
In the case of B1, the “neutralization IC50” value in assay [1], in assay [2], in [3], in assay [4], in [5] and in assay [6] was over 50 µg/mL throughout. Moreover, the “neutralization IC50” value was over 50 µg/mL in assay [7]; over 50 µg/mL in [8]; over 50 µg/mL in assay [9]; 0.172 µg/mL in assay [10]; over 50 µg/mL in assay [11]; over 50 µg/mL in assay [12]. In addition, the “neutralization IC50” value in assay [13], in assay [14], in assay [15], in assay [16] and in assay [17] was over 50 µg/mL each time.

B2: 5114_A19 (PGT-128) (antibody, V domains shown)
VH: QPQLQESGPTLVEASETLSLTCAVSGDSTAACNSFWGWVRQPPGKGLEWVGSLSHCASYWNRGWTYHNPSLKSRLTLALDTPKNLVFLKLNSVTAADTATYYCARFGGEVLRYTDWPKPAWVDLWGRGTLVTVSS
VL: QSALTQPPSASGSPGQSITISCTGTSNNFVSWYQQHAGKAPKLVIYDVNKRPSGVPDRFSGSKSGNTASLTVSGLQTDDEAVYYCGSLVGNWDVIFGGGTKLTVL
On to B2, for which the IC50 (in general, the concentration that gives 50% inhibition) in [18] is 0.03 µg/mL.

B3: 4995_E20 (PGT-142) (antibody, V domains shown)
VH: QVQLVQSGPEVKKPGSSVKVSCKASGNTFSKYDVHWVRQATGQGLEWVGWISHERDKTESAQRFKGRVTFTRDTSATTAYMELRGLTSDDTAIYYCTRGSKHRLRDYVLYDDYGLINYQEWNDYLEFLDVWGHGTAVTVSS
VL: DTVVTQSPLSLPVTPGEAASMSCSSTQSLRHSNGANYLAWYQHKPGQSPRLLIRLGSQRASGVPDRFSGSGSGTHFTLKISRVEAEDAAIYYCMQGLNRPWTFGKGTKLEIK
Consider B3, for which the “IC50 (µg/mL), pseudovirus neutralization” value in assay [19] came to 0.002 µg/mL; in [20], 0.007 µg/mL.

B4: 4970_K22 (PGT-144) (antibody, V domains shown)
VH: QVQLVQSGAEVKKPGSSVKVSCKASGNTFRKYDVHWVRQATGQGLEWVGWMSHEGDKTESAQRFKGRVSFTRDNSASTAYIELRGLTSDDTAIYYCTGGSKHRLRDYVLYDDYGLINQQEWNDYLEFLDVWGHGTAVTVSS
VL: DTVVTQSPLSLSVTPGEAASMSCTSTQSLRHSNGANYLAWYQHKPGQSPRLLIRLGSQRASGVPDRFSGSGSGTHFTLKISRVEADDAAIYYCMQGLNRPWTFGKGTKLEIK
Take B4: the “IC50 (µg/mL), pseudovirus neutralization” value in assay [21] is over 50 µg/mL.
